Pooled drug test results. Numbers come from NIAID ChemDB, via PubChem.

All rows: growth or infection tests; species: Mycobacterium tuberculosis

For "inactive" no cut-off is given. MIC bound comes from a single tested concentration. Percent inhibition refers to the dose given; in toxicity tests it is the harm to the cells. Blank or dashed fields: not listed here. Rows are shuffled and stem from different studies.

structure	tested at	conditions	measure	strain	read by	changes	result
N#Cc1ccc2oc3ccccc3c(=O)c2c1	4 µg/mL		inhibition	H37Rv			inactive
c1ccc2c3c([nH]c2c1)-c1nocc1CCC3	50 µg/mL		inhibition	H37Rv	resazurin		0%
Cc1c(Cl)c(=O)oc2cc(OCCN3CCN(Cc4ccc(Br)cc4)CC3)ccc12	100 µM		inhibition	H37Rv	fluorescence		67.94%
CCCCCC(/C=N/NC(=S)NC12CC3CC(CC(C3)C1)C2)=C\c1ccccc1	6.25 µg/mL		inhibition	H37Rv	BACTEC		53%
CO[C@H]1/C=C/O[C@@]2(C)Oc3c(C)c(O)c4c(O)c(c(/C=N/N5CCN(C)CC5)c(O)c4c3C2=O)NC(=O)/C(C)=C\C=C\[C@H](C)[C@H](O)[C@@H](C)[C@@H](O)[C@@H](C)[C@H](OC(C)=O)[C@@H]1C			MIC	Clinical isolate	resazurin	MDR	>12.5 µg/mL
Cc1ccc2c3c([nH]c2c1)C(=O)/C(=C/O)CCC3	50 µg/mL		inhibition	H37Rv	resazurin		0%
COc1ccc(OC)c(/C=C2N=C(/C=C/c3ccccc3OC)OC\2=O)c1			MIC	H37Rv	MTT		17.1 µM
Oc1cc(C(O)CCc2ccc(F)cc2)ccc1Oc1ccccc1			MIC	H37Rv	resazurin		4 µg/mL
CC(C)(C)C1CCc2c(sc3nc(SCC(N)=O)nc(N)c23)C1			MIC	H37Rv	MTT		36 µM
Cc1cc(=O)oc2cc(OCc3ccc(Br)cc3)ccc12	50 µM		inhibition	H37Rv	fluorescence		59.14%
C[C@H]1COc2c(N3CCN(C)CC3)c(F)cc3c(=O)c(C(=O)O)cn1c23			MIC	10S			0.5 µg/mL
Nc1ccc(C2SCC(=O)N2NC(=O)c2ncc3cc(C(F)(F)F)ccc3n2)c(N)c1			MIC	H37Rv	visual reading		1.6 µM
COc1cc2c(cc1OC)CN1CCc3cc(OC)c(OC)cc3C1C2			MIC bound	H37Rv	BACTEC		≤128 µg/mL
CCCCN(C(=O)COc1cc2c(O)c3c(O)c(C)c4c(c13)C(=O)[C@@](C)(O/C=C/[C@H](OC)[C@@H](C)[C@@H](OC(C)=O)[C@H](C)[C@H](O)[C@H](C)[C@@H](O)[C@@H](C)/C=C/C=C(/C)C(=O)N2)O4)N(CCC)CCC			MIC	H37Rv			0.09 µg/mL
COc1ccc(C2=NN(C(C)=O)C(c3cn(-c4ccccc4)nc3-c3ccc(SC)cc3)C2)cc1	6.25 µg/mL		inhibition	H37Rv	BACTEC		55%
CO[C@H]1/C=C/O[C@@]2(C)Oc3c(C)c(O)c4c(O)c(cc(OCC(=O)N(C)C5CCCCC5)c4c3C2=O)NC(=O)/C(C)=C\C=C\[C@H](C)[C@H](O)[C@@H](C)[C@@H](O)[C@@H](C)[C@H](OC(C)=O)[C@@H]1C			MIC	H37Rv			0.09 µg/mL
C=C(C)[C@@H]1CC[C@]2(C(=O)O)CC[C@]3(C)[C@H](CCC4[C@@]5(C)CC[C@H](C(=O)/C=C/c6ccc(O)c(O)c6)C(C)(C)[C@@H]5CC[C@]43C)[C@@H]12			MIC bound	H37Rv	BACTEC		>12.5 µg/mL
COc1ccc(C2=NNC(c3cn(-c4ccccc4)nc3-c3ccc(SC)cc3)C2)cc1	6.25 µg/mL		inhibition	H37Rv	BACTEC		86%
CC(C)(C)C1CCc2c(sc3nc(SCc4ccn[nH]4)nc(N)c23)C1			MIC	H37Rv	MTT / visual reading		100 µg/mL
COc1ccc(C2SCC(=O)N2NC(=O)c2ncc3cc(C(F)(F)F)ccc3n2)c(O)c1			MIC	H37Rv	visual reading		2.42 µM
O=C(O)CCCc1nc2c(n1-c1ccccc1)C(=O)c1ccccc1C2=O			MIC bound	H37Rv	BACTEC		>12.5 µg/mL
COC(=O)c1c([N+](=O)[O-])ccc2oc3ccc([N+](=O)[O-])cc3c(=O)c12	32 µg/mL		inhibition	H37Rv			inactive
Cc1nc(NN)c(C(N)=O)nc1C			MIC bound	H37Rv	BACTEC		>12.5 µg/mL
CSc1ccc(-c2nn(-c3ccccc3)cc2C2CC(c3ccc(Br)cc3)=NN2)cc1	6.25 µg/mL		inhibition	H37Rv	BACTEC		24%
COc1ccc(C2SCC(=O)N2NC(=O)c2ncc3cc(C(F)(F)F)ccc3n2)cc1			MIC	H37Rv	visual reading		2.21 µM
COC(=O)c1cccc2c(=O)c3ccccc3oc12	16 µg/mL		inhibition	H37Rv			inactive
COc1cc(CSc2nc(N)c3c4c(sc3n2)CC(C(C)(C)C)CC4)on1			MIC	H37Rv	MTT / visual reading		>200 µg/mL
Oc1cc(C(O)CCc2ccc(Cl)cc2)ccc1Oc1ccccc1			MIC	Clinical isolate	resazurin	MDR	>12.5 µg/mL
O=C(O)c1cc([N+](=O)[O-])cc2c(=O)c3cc([N+](=O)[O-])ccc3oc12	32 µg/mL		inhibition	H37Rv			inactive
COc1cc(/C=C2/C(=O)NN(c3ccc(Cl)cc3)C2=O)cc([N+](=O)[O-])c1O			MIC	H37Rv	MTT		1.5 µM
CCOC(=O)c1cc(-c2ccc(Cl)cc2)n(CC(=O)N/N=C/c2ccccc2O)c1C			MIC	H37Rv			>6.25 µg/mL
CCCNC(=O)COc1cc2c(O)c3c(O)c(C)c4c(c13)C(=O)[C@@](C)(O/C=C/[C@H](OC)[C@@H](C)[C@@H](OC(C)=O)[C@H](C)[C@H](O)[C@H](C)[C@@H](O)[C@@H](C)/C=C/C=C(/C)C(=O)N2)O4			MIC	H37Rv			0.18 µg/mL
COC1=C(C)C(=O)c2cc(=O)n(C)cc2C1=O			MIC	H37Rv			3.125 µg/mL
CC(=O)n1cc(/C=N\NC(=O)c2ccncc2)c2ccccc21			MIC	H37Rv			0.2 µg/mL
CC1=NN(C(=O)c2cccnc2)C(=O)C1N=Nc1ccc(S(=O)(=O)Nc2ccccn2)cc1			MIC bound	H37Rv	BACTEC		>12.8 µg/mL
CCCOC(=O)CSc1nc(N)c2c3c(sc2n1)CC(C(C)(C)C)CC3			MIC	H37Rv	MTT / visual reading		1.5 µg/mL
CO[C@H]1/C=C/O[C@@]2(C)Oc3c(C)c(O)c4c(O)c(cc(OCC(=O)N(C)N5CCCCC5)c4c3C2=O)NC(=O)/C(C)=C\C=C\[C@H](C)[C@H](O)[C@@H](C)[C@@H](O)[C@@H](C)[C@H](OC(C)=O)[C@@H]1C			MIC	H37Rv			0.09 µg/mL
O=c1nc(Oc2ccccc2)nc2c3ccccc3ccn12	6.25 µg/mL		inhibition	H37Rv	resazurin		-10%
c1ccc(-n2ncc3c2-c2[nH]c4ccccc4c2CCC3)cc1	50 µg/mL		inhibition	H37Rv	resazurin		0%
Cc1cc2oc3ccccc3c(=O)c2cc1[N+](=O)[O-]	8 µg/mL		inhibition	H37Rv			inactive
Cc1cc(C(=O)C(C#N)=Nc2ccc(N(C)C)cc2)c(CN2C(=O)c3ccccc3C2=O)c(=O)n1C			MIC bound	H37Rv	resazurin		>6.25 µg/mL
Oc1cc(C(O)CCc2ccccc2)ccc1Oc1ccccc1			MIC	Clinical isolate	resazurin	MDR	>12.5 µg/mL
CCOC(=O)c1cc(-c2ccc(Cl)cc2)n(CCC(=O)N/N=C/c2ccc(OC)cc2)c1C			MIC	H37Rv			>6.25 µg/mL
CC(=O)Nc1ccc(C)c([N+](=O)[O-])c1	12.5 µg/mL		inhibition	H37Rv	BACTEC		0%
COC(=O)c1c(C(=O)OC)c2c(Br)cc3ccccc3n2c1C(=O)c1ccc(C#N)cc1			MIC		resazurin	MDR	8 µg/mL
COC(=O)c1nc(N)nc(C(=O)OC)c1C(=O)c1ccc(N2CCN(c3ccc(C(=O)c4c(C(=O)OC)nc(N)nc4C(=O)OC)cc3)CC2)cc1			MIC bound	H37Rv	BACTEC		>12.5 µg/mL
O=c1cc(C(F)(F)F)c2ccc(OCc3ccc(Br)cc3)cc2o1	50 µM		inhibition	H37Rv	fluorescence		34.96%
NNC(=O)c1ccncc1			MIC	10S			0.1 µg/mL
CO[C@H]1/C=C/O[C@@]2(C)Oc3c(C)c(O)c4c(=O)c(c5oc6cc(N7CCN(CC(C)C)CC7)cc(=O)c6nc5c4c3=C2O)NC(=O)/C(C)=C\C=C\[C@H](C)[C@H](O)[C@@H](C)[C@@H](O)[C@@H](C)[C@H](OC(C)=O)[C@@H]1C	10 µg/mL	inside macrophages	inhibition	Kurata			90.8%
CN[C@@H]1[C@H](O[C@H]2[C@H](O[C@H]3[C@H](O)[C@@H](O)[C@H](NC(N)=O)[C@@H](O)[C@@H]3NC(N)=O)O[C@@H](C)[C@]2(O)CO)O[C@@H](CO)[C@H](O)[C@H]1O			MIC	666			25 µg/mL
CCOC(=O)N1CCN(c2ccc(CNC(=O)c3ccc([N+](=O)[O-])o3)cc2F)CC1			MIC	H37Ra			0.004 µg/mL
COc1cc2cc3c4ccccc4cc[n+]3c(C)c2cc1OC			MIC bound	H37Rv	BACTEC		>12.8 µg/mL
Cc1ccc(CCC(=O)c2ccc(Oc3ccccc3)c(O)c2)cc1			MIC	H37Rv	resazurin		15 µg/mL
Cc1c(N)nc([C@H](CC(N)=O)NC[C@@H](N)C(N)=O)nc1C(=O)N[C@H](C(=O)NC(C)C(O)CC(=O)NC(C(=O)NC(OC1OC(C)C(N)C(O)C1O)C(O)c1nc(-c2nc(C(=O)NCCCCN)cs2)cs1)[C@H](C)O)C(OC1OC(CO)C(O)C(O)C1OC1OC(CO)C(O)C(OC(N)=O)C1O)c1cnc[nH]1.Cl.Cl.Cl.Cl			MIC	KM-R			0.1 µg/mL
O=C(NN1C(=O)CSC1c1ccc(F)cc1F)c1ncc2cc(C(F)(F)F)ccc2n1			MIC	H37Rv	visual reading		1.95 µM
CC(C)(C)C1CCc2c(sc3nc(=S)[nH]c(N)c23)C1			MIC	H37Rv	MTT		160 µM
CCN(CCNc1ccc(C)c2sc3cc(Cl)ccc3c(=O)c12)CC(C)O			MIC bound	H37Rv	BACTEC		>12.5 µg/mL
NC1=NC(=O)/C(=C/C=C/c2ccc([N+](=O)[O-])o2)S1			MIC	H37Rv	MTT		9 µM
Cc1cc(N=Nc2cc(C)c(NC(=O)c3ccc(NC(=O)c4ccc(N)cc4)cc3)cc2C)ccc1N=Nc1ccc2cc(S(=O)(=O)O)cc(S(=O)(=O)O)c2c1			MIC bound	H37Rv	BACTEC		>12.5 µg/mL
CSc1ccc(-c2nn(-c3ccccc3)cc2C2CC(c3ccc(O)cc3)=NN2C(C)=O)cc1	6.25 µg/mL		inhibition	H37Rv	BACTEC		42%
CCOC(=O)c1cc(-c2ccc(Cl)cc2)n(CC(=O)N/N=C/c2ccccc2)c1C	6.25 µg/mL		inhibition	H37Rv			97%
Oc1c(CN2CCCC2)cc(Nc2cc(/C=C/c3ccc(Cl)cc3)nc(/C=C/c3ccc(Cl)cc3)n2)cc1CN1CCCC1			MIC bound	H37Rv	resazurin		>6.25 µg/mL
Cc1cc2oc3ccc([N+](=O)[O-])cc3c(=O)c2cc1[N+](=O)[O-]	32 µg/mL		inhibition	H37Rv			inactive
O=C(CCCCC(=O)Nc1cc(C2=NCCN2)cc(C2N=CCN2)c1)Nc1cc(C2=NCCN2)cc(C2=NCCN2)c1	6.25 µg/mL		inhibition	H37Rv	resazurin		55%
COc1ccc(CCC(O)c2ccc(Oc3ccccc3)c(O)c2)cc1			MIC	Clinical isolate	resazurin	INH resistant	6.25 µg/mL
NC(=O)C(=O)c1c[nH]c2ccccc12			MIC bound	H37Rv	BACTEC		>6.25 µg/mL
NNC(=O)c1ccncc1			MIC	Clinical isolate	resazurin	MDR	>12.5 µg/mL
O=C(NN1C(=O)CSC1c1ccccc1Br)c1ncc2cc(C(F)(F)F)ccc2n1			MIC	H37Rv	visual reading		2.32 µM
CCCc1ccc(C(=O)Nc2nc3ccccc3s2)cc1			MIC	H37Rv	MTT		8.5 µM
O=C1CCC(C(=O)N/N=C/C=N/NC(=O)C2CCC(=O)N2)N1			MIC bound	H37Rv	BACTEC		>12.5 µg/mL
O=c1ccc2ccc(OCCN3CCC(Cc4ccccc4)CC3)cc2o1	100 µM		inhibition	H37Rv	fluorescence		84.57%
COc1ccc(CSC(=S)Nc2ccc(F)c(F)c2)cc1	128 µg/mL		inhibition	H37Rv	BACTEC		100%
O=C(NN1C(=O)CSC1c1ccccc1Cl)c1ncc2cc(C(F)(F)F)ccc2n1			MIC	H37Rv	visual reading		3.35 µM
CN(C)N1C(=O)C(=O)OC1=C(c1ccccc1)c1ccccc1	12.5 µg/mL		inhibition	H37Rv	BACTEC		5%
CCOC(=O)CSc1nc(N)c2c3c(sc2n1)CCCC3			MIC	H37Rv	MTT		5 µM

A second listing of 7 rows from above:

structure	tested at	conditions	measure	strain	read by	changes	result
COc1ccc(CSC(=S)Nc2ccc(F)c(F)c2)cc1	128 µg/mL		inhibition	H37Rv	BACTEC		100%
O=C(O)CCCc1nc2c(n1-c1ccccc1)C(=O)c1ccccc1C2=O			MIC bound	H37Rv	BACTEC		>12.5 µg/mL
COC1=C(C)C(=O)c2cc(=O)n(C)cc2C1=O			MIC	H37Rv			3.125 µg/mL
CO[C@H]1/C=C/O[C@@]2(C)Oc3c(C)c(O)c4c(O)c(cc(OCC(=O)N(C)N5CCCCC5)c4c3C2=O)NC(=O)/C(C)=C\C=C\[C@H](C)[C@H](O)[C@@H](C)[C@@H](O)[C@@H](C)[C@H](OC(C)=O)[C@@H]1C			MIC	H37Rv			0.09 µg/mL
CCOC(=O)c1cc(-c2ccc(Cl)cc2)n(CC(=O)N/N=C/c2ccccc2O)c1C			MIC	H37Rv			>6.25 µg/mL
O=C(NN1C(=O)CSC1c1ccc(F)cc1F)c1ncc2cc(C(F)(F)F)ccc2n1			MIC	H37Rv	visual reading		1.95 µM
C=C(C)[C@@H]1CC[C@]2(C(=O)O)CC[C@]3(C)[C@H](CCC4[C@@]5(C)CC[C@H](C(=O)/C=C/c6ccc(O)c(O)c6)C(C)(C)[C@@H]5CC[C@]43C)[C@@H]12			MIC bound	H37Rv	BACTEC		>12.5 µg/mL